Compound potency records, mixed from different reports. Data source: NIAID ChemDB in PubChem.

Common to all: tests on isolated targets; agent: HIV-1; target: Protease

Conditions beyond the fields shown may differ between rows. ICn: concentration for n% inhibition.

{"smiles": "CC[C@H](C)[C@@H](C=O)NC(=O)[C@H](CO)NC(=O)[C@H](Cc1ccc(O)cc1)NC(=O)[C@H](CCC(=O)O)NC(=O)[C@H](CC(C)C)NC(=O)[C@@H](N)CC(C)C", "endpoint": "Ki", "method": "HPLC", "value": "0.013 µM"}
{"smiles": "CC(C)[C@H](NC(=O)[C@H](Cc1cccc2ccccc12)CS(=O)(=O)C(C)(C)C)C(=O)N[C@@H](Cc1ccccc1)[C@@H](O)CN1CCC[C@H]1C(F)(F)F", "endpoint": "IC50", "value": "0.005 µM"}
{"smiles": "CC[C@@H](C)[C@H](NC(=O)[C@@H]1CCCN1C(=O)[C@@H](O)[C@H](CC1CCCCC1)NC(=O)[C@H](COC)NC(=O)CCc1ccccc1)C(=O)N[C@H](C(N)=O)C(C)C", "endpoint": "IC50", "value": "<5 µM"}
{"smiles": "C=C(C)[C@@H]1CC[C@]2(C(=O)O)CC[C@]3(C)[C@H](CC[C@@H]4[C@@]5(C)CC[C@H](OC(=O)CC(=O)O)C(C)(C)C5CC[C@]43C)[C@@H]12", "endpoint": "IC50", "value": "6 µM"}
{"smiles": "CCCC[C@H](NC(=O)[C@H](C)NC(=O)[C@H](CCC(=O)O)NC[C@H](Cc1ccccc1)NC(=O)[C@H](CC(C)C)NC(=O)[C@@H](NC(=O)[C@@H](N)CCCN=C(N)N)C(C)C)C(N)=O", "endpoint": "IC50", "method": "HPLC", "value": "<0.075 µM"}
{"smiles": "NC(=O)C[C@H](NC(=O)c1ccc2ccccc2n1)C(=O)N[C@@H](Cc1ccccc1)[C@H](O)CN1CCC[C@H]1C(F)(F)F", "endpoint": "IC50", "value": "0.00005 µM"}
{"smiles": "CC(C)(C)NC(=O)[C@H]1N(C(=O)[C@@H](O)[C@H](Cc2ccccc2)NC(=O)[C@H](CC(N)=O)NC(=O)COc2ccccc2-c2ccccc2)CSC1(C)C", "endpoint": "IC50", "value": "<0.05 µM"}
{"smiles": "CC(C)C[C@H](N)C(=O)N[C@H](C=O)CCC(=O)O", "endpoint": "IC50", "method": "HPLC", "value": "<1000 µM"}
{"smiles": "N[C@@H](Cc1c[nH]c2ccccc12)C(=O)O", "endpoint": "IC50", "value": ">100 µM"}
{"smiles": "CC(C)[C@H](NC(=O)[C@H](Cc1cccc2ccccc12)CS(=O)(=O)C(C)(C)C)C(=O)N[C@@H](Cc1ccccc1)[C@@H](O)CN1CC[C@H]2CCCC[C@H]2[C@H]1C(F)(F)F", "endpoint": "IC50", "value": "0.05 µM"}
{"smiles": "CC(C)(C)NC(=O)[C@H]1N(C(=O)[C@@H](O)[C@H](Cc2ccccc2)NC(=O)[C@H](CSN)NC(=O)COc2cccc3cnccc23)CSC1(C)C", "endpoint": "IC50", "value": "<0.05 µM"}
{"smiles": "CC(C)C[C@H](NC(=O)[C@@H](N)CC(C)C)C(=O)N[C@@H](CCC(=O)O)C(=O)N[C@@H](Cc1ccc(O)cc1)C(=O)N[C@H](C=O)CO", "endpoint": "IC50", "method": "HPLC", "value": "0.12 µM"}
{"smiles": "C[C@H](CCC(=O)O)[C@H]1CC[C@H]2[C@@H]3[C@H](O)C[C@@H]4C[C@H](O)CC[C@]4(C)[C@H]3C[C@H](O)[C@]12C", "endpoint": "IC50", "method": "absorbance", "value": "350 µM"}
{"smiles": "CC(C)[C@H](NC(=O)[C@@H](NC(=O)[C@@H]1CCCN1C[C@H](Cc1ccccc1)NC(=O)[C@H](C)NC(=O)[C@H](C)NC(=O)[C@@H](N)CO)C(C)C)C(N)=O", "endpoint": "Ki", "method": "HPLC", "value": "19 µM"}
{"smiles": "CC(C)[C@H](NC(=O)[C@H](Cc1cccc2ccccc12)CS(=O)(=O)C(C)(C)C)C(=O)N[C@@H](Cc1ccccc1)[C@@H](O)C(O)CN1CCC[C@H]1C(F)(F)F", "endpoint": "IC50", "value": "0.05 µM"}
{"smiles": "CC[C@@H](C)[C@H](NC(=O)[C@@H]1CCCN1C(=O)[C@@H](O)[C@H](CC1CCCCC1)NC(=O)[C@H](CC(N)=O)NC(=O)c1cccs1)C(=O)N[C@H](C(N)=O)C(C)C", "endpoint": "IC50", "value": "<5 µM"}
{"smiles": "C[C@H](CCC(=O)O)[C@H]1CC[C@H]2[C@@H]3CC[C@@H]4C[C@H](O)CC[C@]4(C)[C@H]3C[C@H](O)[C@]12C", "endpoint": "IC50", "method": "absorbance", "value": "80 µM"}
{"smiles": "COC(=O)CCCC(=O)O[C@H]1CC[C@@]2(C)C(CC[C@]3(C)C2CC=C2C4[C@@H](C)[C@H](C)CC[C@]4(C(=O)OC)CC[C@]23C)C1(C)C", "endpoint": "IC50", "value": ">50 µM"}
{"smiles": "CC(C)[C@H](NC(=O)[C@H](Cc1cccc2ccccc12)CS(=O)(=O)C(C)(C)C)C(=O)N[C@@H](Cc1ccccc1)[C@@H](O)CN1[C@H](C)CC[C@H]1C(F)(F)F", "endpoint": "IC50", "value": "0.005 µM"}
{"smiles": "CC(C)(C)OC(=O)N[C@@H](CC(N)=O)C(=O)N[C@@H](Cc1ccccc1)[C@H](O)C(=O)NCC1CCCCC1", "endpoint": "IC50", "value": "~1000 µM"}
{"smiles": "C=C(C)[C@@H]1CC[C@]2(C(=O)OC)CC[C@]3(C)[C@H](CC[C@@H]4[C@@]5(C)CC[C@H](O)C(C)(C)[C@@H]5CC[C@]43C)[C@@H]12", "endpoint": "IC50", "value": ">25 µM"}
{"smiles": "O=S1(=O)N(Cc2ccc(CO)cc2)[C@H](Cc2ccccc2)CC(O)C[C@@H](Cc2ccccc2)N1Cc1ccc(CO)cc1", "endpoint": "Ki", "value": "2.1 µM"}
{"smiles": "CC1(C)CC[C@]2(C(=O)O)CC[C@]3(C)C(=CCC4[C@@]5(C)CC[C@H](OC(=O)C(=O)O)C(C)(C)C5CC[C@]43C)C2C1", "endpoint": "IC50", "value": "20 µM"}
{"smiles": "C[C@H](CCC(=O)O)[C@H]1CC[C@H]2C3[C@@H](O)C[C@@H]4C[C@H](O)CC[C@]4(C)[C@H]3CC[C@]12C", "endpoint": "IC50", "method": "absorbance", "value": "70 µM"}
{"smiles": "CC1(C)CC[C@]2(C)CC[C@]3(C)C(=CC[C@@H]4[C@@]5(C)CC[C@H](O)C(C)(C)[C@@H]5CC[C@]43C)[C@@H]2C1", "endpoint": "IC50", "value": ">100 µM"}
{"smiles": "CC(C)C[C@H](NC(=O)[C@@H](N)CC(C)C)C(=O)N[C@@H](CCC(=O)O)C(=O)O", "endpoint": "IC50", "method": "HPLC", "value": "<1000 µM"}
{"smiles": "CC(C)CN(C[C@@H](O)[C@H](Cc1ccccc1)NC(=O)O[C@H]1CO[C@H]2OCC[C@H]21)S(=O)(=O)c1ccc(C(=O)O)cc1", "endpoint": "Ki", "method": "substrate cleavage / fluorescence", "value": "0.0000129 µM"}
{"smiles": "C[C@@H]1CC[C@]2(C(=O)O)CC[C@]3(C)C(=CCC4[C@@]5(C)CC[C@H](OC(=O)CC(=O)O)C(C)(C)C5CC[C@]43C)C2[C@H]1C", "endpoint": "IC50", "value": "6 µM"}